Compound potency records, mixed from different reports. Data source: NIAID ChemDB in PubChem.

Shared fields: whole-cell or culture tests

Neighbouring rows are from separate reports. Blank or dashed fields: not listed here. A number after MIC or MFC names an inhibition level or a share of isolates. Percent inhibition refers to the dose given; in toxicity tests it is the harm to the cells.

structure,measure,dose,method,strain,agent,cell line,value
CN[C@H]1CC[C@@H](c2ccc(Cl)c(Cl)c2)c2ccccc21,MFC,,broth dilution,A7-35-23,Cryptococcus neoformans,,10 µg/mL
CCC(C)CC(C)CCCCCCCCC(=O)N[C@H]1C[C@@H](O)[C@H](NCCN)NC(=O)[C@@H]2[C@@H](O)CCN2C(=O)[C@H]([C@H](O)CCN)NC(=O)[C@H]([C@H](O)[C@@H](O)c2ccc(O)cc2)NC(=O)[C@@H]2C[C@@H](O)CN2C(=O)[C@H]([C@@H](C)O)NC1=O,MIC,,broth dilution,A 47496,Cryptococcus gattii,,32 µg/mL
NC[C@@H]1O[C@H](O[C@H]2[C@@H](O)[C@H](O[C@@H]3[C@@H](O)[C@H](N)C[C@H](N)[C@H]3O[C@H]3O[C@H](CO)[C@@H](O)[C@H](O)[C@H]3N)O[C@@H]2CO)[C@H](N)[C@@H](O)[C@@H]1O,inhibition,250 µg/mL,cell count,,Cryptosporidium parvum,MDBK,68%
CCn1nc(Cc2ccccc2)c2c1C(=O)c1c(OC(C)=O)c(C)c(C)c(OC(C)=O)c1C2=O,inhibition,50 µM,,,Cryptosporidium parvum,,<10%
Cn1nc(Cc2ccc(Cl)cc2)c2ccccc2c1=O,MIC80,,broth dilution,Clinical isolate (IM 972724),Cryptococcus neoformans,,3.9 µg/mL
O=[N+]([O-])c1ccc(C=Nc2ccccc2O)cc1,MIC,,broth dilution,ATCC 24067,Cryptococcus neoformans,,8 µg/mL
C[C@@H](c1ncncc1F)[C@](O)(Cn1cncn1)c1ccc(F)cc1F,MIC,,broth dilution,Clinical isolate (IM 983040),Cryptococcus neoformans,,<0.015 µg/mL
Cc1ccc2c(c1)C(=O)c1c(cnn1C)C2=O,inhibition,10 µM,,,Cryptosporidium parvum,,10%
CCOC(=O)c1c(C)nc(NCCCCNc2ccnc3cc(Cl)ccc23)nc1-c1ccccc1,MIC99,,,LMM 820,Cryptococcus neoformans,,8 µg/mL
CC(=O)Oc1cccc2c1C(=O)c1c(cnn1C)C2=O,inhibition,25 µM,,,Cryptosporidium parvum,,100%
NC[C@@H]1O[C@H](O[C@H]2[C@@H](O)[C@H](O[C@@H]3[C@@H](O)[C@H](N)C[C@H](N)[C@H]3O[C@H]3O[C@H](CO)[C@@H](O)[C@H](O)[C@H]3N)O[C@@H]2CO)[C@H](N)[C@@H](O)[C@@H]1O,inhibition,500 µg/mL,luminescence,IOWA,Cryptosporidium parvum,MDCK,40.1%
C[C@@H](c1ncncc1F)[C@](O)(Cn1cncn1)c1ccc(F)cc1F,MIC90,,broth dilution,,Cryptococcus gattii,,0.125 µg/mL
Oc1cccc(C=Nc2ccccc2O)c1,MIC99,,,L 27/01,Cryptococcus gattii,,16 µg/mL
O=C1c2cn[nH]c2C(=O)c2c(O)ccc(O)c21,inhibition,25 µM,,,Cryptosporidium parvum,,100%

Again, the opening 2 rows:

structure	measure	dose	method	strain	agent	cell line	value
CN[C@H]1CC[C@@H](c2ccc(Cl)c(Cl)c2)c2ccccc21	MFC		broth dilution	A7-35-23	Cryptococcus neoformans		10 µg/mL
CCC(C)CC(C)CCCCCCCCC(=O)N[C@H]1C[C@@H](O)[C@H](NCCN)NC(=O)[C@@H]2[C@@H](O)CCN2C(=O)[C@H]([C@H](O)CCN)NC(=O)[C@H]([C@H](O)[C@@H](O)c2ccc(O)cc2)NC(=O)[C@@H]2C[C@@H](O)CN2C(=O)[C@H]([C@@H](C)O)NC1=O	MIC		broth dilution	A 47496	Cryptococcus gattii		32 µg/mL